## Deep mutational scan of the Zika virus protease

Chain scanned (Zika virus MR766; NS2B from position 2 to 131, then the start of NS3):
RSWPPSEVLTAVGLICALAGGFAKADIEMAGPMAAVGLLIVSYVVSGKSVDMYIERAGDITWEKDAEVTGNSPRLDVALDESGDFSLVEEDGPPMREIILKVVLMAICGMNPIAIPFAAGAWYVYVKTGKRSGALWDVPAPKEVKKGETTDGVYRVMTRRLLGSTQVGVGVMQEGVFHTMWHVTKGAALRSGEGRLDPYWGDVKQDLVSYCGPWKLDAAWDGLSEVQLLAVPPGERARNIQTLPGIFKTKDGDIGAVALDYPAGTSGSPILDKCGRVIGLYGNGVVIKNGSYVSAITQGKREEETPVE

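Pools of virus carrying all single amino acid changes were selected for growth in Huh-7.5 cells. The effect is the change in frequency of a mutant, normalised to wild type, as a mean of three replicate libraries (two for positions 207-308).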

Scale: log2 effect, wild type = 0; the lower, the more harmful to the virus.
Rows are sites, columns the new residue; wt marks the wild-type residue.
The authors count -1 or higher as tolerated. Position 1 is the last residue of NS2A.

site | G | A | V | L | I | M | F | W | Y | C | P | S | T | N | Q | D | E | K | R | H | *
V293 | -6.33 | -5.98 | wt | -6.63 | -0.68 | -4.71 | -4.64 | -4.72 | -4.14 | -5.22 | -5.84 | -6.28 | -5.68 | -4.57 | -4.58 | -5.04 | -4.80 | -4.63 | -6.33 | -4.42 | -6.48
S294 | -4.59 | -5.43 | -5.54 | -6.10 | -6.15 | -4.96 | -5.02 | -4.57 | -4.51 | -5.25 | -5.42 | wt | -6.24 | -5.07 | -4.52 | -4.40 | -4.79 | -4.92 | -6.49 | -4.42 | -6.83
A295 | -6.51 | wt | -6.29 | -6.09 | -4.15 | -4.59 | -4.80 | -4.97 | -4.25 | -5.00 | -6.63 | -6.69 | -6.52 | -4.84 | -4.88 | -5.82 | -5.01 | -5.22 | -6.27 | -4.99 | -6.52
I296 | -5.18 | -5.35 | -4.37 | -5.67 | wt | -4.98 | -4.64 | -4.58 | -4.36 | -4.67 | -5.46 | -6.03 | -4.78 | -4.42 | -4.55 | -4.75 | -4.31 | -4.86 | -6.30 | -4.90 | -6.56
T297 | -5.53 | -4.04 | -5.15 | -5.53 | -2.54 | -4.50 | -4.88 | -4.69 | -4.57 | -4.70 | -5.39 | -0.04 | wt | -3.78 | -4.41 | -4.49 | -3.74 | -4.08 | -6.04 | -4.04 | -5.84
Q298 | -5.50 | -5.25 | -5.65 | -6.94 | -4.06 | -4.94 | -3.87 | -4.52 | -4.58 | -4.90 | -6.08 | -5.64 | -5.76 | -4.31 | wt | -3.57 | -4.81 | -5.98 | -5.48 | -6.61 | -7.32
G299 | wt | -4.79 | -6.70 | -6.36 | -4.76 | -5.08 | -4.95 | -4.20 | -4.94 | -4.15 | -5.59 | -4.80 | -5.65 | -4.57 | -4.93 | -5.44 | -5.62 | -4.32 | -5.13 | -3.07 | -7.90
K300 | -6.53 | -4.87 | -3.70 | -4.44 | -2.91 | -6.14 | -5.34 | -4.04 | -5.47 | -3.78 | -5.87 | -5.27 | -4.77 | -6.59 | -3.31 | -5.14 | -5.69 | wt | -0.21 | -1.57 | -7.35
R301 | -6.41 | -3.68 | -2.48 | -4.04 | -2.71 | -6.51 | -1.26 | -4.12 | -3.26 | -1.39 | -3.09 | -7.22 | -5.33 | -4.84 | -5.55 | -4.86 | -5.18 | -4.33 | wt | -4.57 | -7.19
E302 | -0.98 | -0.73 | 1.10 | 0.17 | 1.77 | 1.28 | 0.31 | -0.59 | 0.61 | 0.94 | -1.77 | 0.00 | 0.47 | -0.97 | 0.61 | -1.11 | wt | -1.11 | -1.22 | -0.86 | -8.07
E303 | -3.81 | 0.02 | -1.00 | -0.99 | -0.56 | -1.08 | -0.83 | -0.84 | -1.24 | -0.94 | -0.23 | -0.67 | -1.02 | -1.64 | -1.10 | -0.61 | wt | -4.63 | -2.66 | -1.22 | -8.24
E304 | -0.22 | -0.74 | -0.14 | 0.13 | 0.01 | 0.33 | -0.44 | 0.01 | -1.47 | -0.54 | -0.51 | -0.38 | -0.50 | -1.08 | -0.34 | -2.06 | wt | -3.13 | -2.39 | -1.28 | -7.72
T305 | -1.01 | 0.14 | -0.76 | 0.32 | -1.87 | 0.74 | -0.99 | -1.40 | 0.74 | -0.59 | -0.31 | 0.20 | wt | -0.46 | 0.26 | 0.04 | 0.44 | -0.83 | -1.00 | -0.73 | -6.72
P306 | -2.19 | -0.14 | -1.33 | -1.40 | -1.48 | -0.64 | -1.50 | -2.96 | -1.20 | -0.38 | wt | -1.40 | -2.29 | -2.79 | -4.18 | -4.12 | -3.09 | -2.08 | -3.59 | -0.91 | -6.73
V307 | -1.48 | -0.93 | wt | -1.24 | -0.95 | -0.17 | -2.37 | -3.33 | -0.87 | 0.16 | -1.01 | -0.83 | 0.30 | -1.38 | -0.81 | -3.89 | -3.03 | -2.91 | -2.71 | -0.55 | -6.37
E308 | -1.27 | 0.59 | -0.26 | -0.12 | -0.39 | 0.22 | -0.63 | -2.28 | -0.35 | -0.15 | 0.00 | 0.33 | 0.14 | 1.66 | 0.72 | 0.74 | wt | -3.74 | -1.06 | 1.21 | -7.41

A selection of 34 entries from above:

mutation,log2 effect
T305L,0.32
V307K,-2.91
A295T,-6.52
R301C,-1.39
K300C,-3.78
V293I,-0.68
A295K,-5.22
E303S,-0.67
S294R,-6.49
G299I,-4.76
R301*,-7.19
Q298A,-5.25
R301P,-3.09
V293D,-5.04
E302G,-0.98
R301E,-5.18
Q298W,-4.52
K300L,-4.44
T305M,0.74
V293T,-5.68
V293E,-4.80
P306S,-1.40
E304Y,-1.47
K300S,-5.27
E303W,-0.84
E303A,0.02
E303P,-0.23
R301Y,-3.26
K300D,-5.14
T297A,-4.04
A295I,-4.15
G299*,-7.90
E302P,-1.77
Q298S,-5.64

Positions 1-103, 104-206 and 207-308 were made and measured as separate libraries.
An asterisk is a stop codon; stop codons read about -7, near the floor of the assay.
Values above 0 are not proof of better growth: six high scorers were tested one by one, five grew less well than wild type and one about as well.

Data from the supplement of Ni et al. 2025, doi:10.1038/s41467-025-63602-z.